This series can be described thus: non-reducing gel, HEK293T lysates. Conditions: glycan lost; control: co-expression with WT SseK1.

B1: TRADD: SseK1 DxD-AxA and HEN motif single mutants (protein)
parent chain: MAAGQNGHEEWVGSAYLFVESSLDKVVLSDAYAHPQQKVAVYRALQAALAESGGSPDVLQMLKIHRSDPQLIVQLRFCGRQPCGRFLRAYREGALRAALQRSLAAALAQHSVPLQLELRAGAERLDALLADEERCLSCILAQQPDRLRDEELAELEDALRNLKCGSGARGGDGEVASAPLQPPVPSLSEVKPPPPPPPAQTFLFQGQPVVNRPLSLKDQQTFARSVGLKWRKVGRSLQRGCRALRDPALDSLAYEYEREGLYEQAFQLLRRFVQAEGRRATLQRLVEALEENELTSLAEDLLGLTDPNGGLA
For the protein B1, the oligomerisation result is listed as “increases”.
